{
  "source": "patent US20080095796A1",
  "about": "“Novel Infectious Burasal Disease Virus And Vaccine Containing Said Virus” (published 2008)",
  "target": "IBD virus K strain (attenuated live vaccine strain) (infectious bursal disease virus K strain)",
  "data": [
    {"substance": "serum of untreated control SPF chickens (Example 9) (polyclonal serum or antibody)", "values": [
      {"measurement": "Neutralizing Antibody titer (Fold, GM value)", "value": 1, "unit": "Fold"}
    ]}
  ]
}
